Chains of the proteins cited; added tags and fusions are not shown. Residues count along the entry.
UniProt A5K1A2, 1-410: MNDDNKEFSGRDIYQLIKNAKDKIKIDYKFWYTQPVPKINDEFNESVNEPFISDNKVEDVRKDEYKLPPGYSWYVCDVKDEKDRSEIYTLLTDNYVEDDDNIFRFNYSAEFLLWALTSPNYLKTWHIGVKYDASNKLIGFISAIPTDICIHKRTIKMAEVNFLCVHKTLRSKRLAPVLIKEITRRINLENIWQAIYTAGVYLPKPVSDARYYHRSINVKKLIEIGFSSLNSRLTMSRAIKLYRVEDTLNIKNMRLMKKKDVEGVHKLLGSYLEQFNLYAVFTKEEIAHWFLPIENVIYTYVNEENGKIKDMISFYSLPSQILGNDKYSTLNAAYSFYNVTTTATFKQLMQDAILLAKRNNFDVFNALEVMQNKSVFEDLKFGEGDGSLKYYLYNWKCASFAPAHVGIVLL

According to patent US20240166643A1, “IMIDAZO[1,2-A]PYRIDINE COMPOUNDS AND THEIR USE IN THERAPY” (Imperial College Innovations Limited, priority 2020, published 2024):

Key:
[1] = test system: Plasmodium falciparum 3D7; test: SYBR Green assay, Plasmodium falciparum strain 3D7; settings: read-out: Pf EC50 strain 3D7, P. falciparum strain 3D7, 96 h incubation
[2] = biological target: Plasmodium vivax (Pv) NMT (Plasmodium vivax (strain Salvador I), UniProt A5K1A2); settings: read-out: PvNMT IC50

SMILES	EC50 [1]	IC50 [2]
C[C@@H]1CN(c2ncc(F)c(N3CC(C(=O)NC(C)(C)c4cnc5ccccn45)C3)n2)CCN1	25 nM	8.3 nM
CN1CCN(c2ncc(Cl)c(N3CC(C(=O)NC(C)(C)c4cnc5ccccn45)C3)n2)CC1CF (stereo not shown)	160 nM	12 nM
